{"source": "PubChem BioAssay AID504761 (Drosophila RNAi Screening Center, 2011)", "test": "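Fly genes whose silencing reduces dengue virus type 2 infection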 (primary screen)", "cell system": "D.Mel-2 cells from Drosophila", "reagent": "long dsRNA against Drosophila genes", "challenge": "infection with dengue virus type 2; dose and infection time not stated", "read-out": "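Per well on two replicate plates, imaging gave the percent of cells positive for viral envelope protein, ranked by infection, and a nuclear count of cells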", "reading the numbers": "infection score: higher = more virus-infected cells", "rule for the call": "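Very low infection ranking in both replicate wells (chance probability at most 0.065), then a retest showing infection dropped 1.5-fold or more at p below 0.05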", "calls": "active = confirmed: knock-down lowers infection; inactive = not picked or not confirmed", "note": "The screen tested about 22,000 reagents; this is a random part of those with a known target gene and a result. Over the whole deposit, 116 (0.52%) are marked active. 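Calls depend on retest data that are not deposited; infection was ranked per plate without normalising between plates; the unit of the infection score is not given.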 Reagents against one gene are numbered here. Not all columns of the deposit are shown. Not stated in the record: the amount of reagent, the time to read-out."}
{"target gene": "CG10748", "dsRNA no.": 1, "infection score, replicate 1": 1.06, "outcome": "inactive"}
{"target gene": "CG11679", "dsRNA no.": 1, "infection score, replicate 1": 1.28, "outcome": "inactive"}
{"target gene": "Fibp", "dsRNA no.": 1, "infection score, replicate 1": 10, "outcome": "inactive"}
{"target gene": "Fibp", "dsRNA no.": 2, "infection score, replicate 1": 0.74, "outcome": "inactive"}
{"target gene": "CG3792", "dsRNA no.": 1, "infection score, replicate 1": 1.94, "outcome": "inactive"}
{"target gene": "Eogt", "dsRNA no.": 1, "infection score, replicate 1": 6.72, "outcome": "inactive"}
{"target gene": "Eogt", "dsRNA no.": 2, "infection score, replicate 1": 26.4, "outcome": "inactive"}
{"target gene": "CG4250", "dsRNA no.": 1, "infection score, replicate 1": 22.3, "outcome": "inactive"}
{"target gene": "Sf3a2", "dsRNA no.": 1, "infection score, replicate 1": 26.9, "outcome": "inactive"}

Records above whose gene name starts with C or c (4):
{"target gene": "CG10748", "dsRNA no.": 1, "infection score, replicate 1": 1.06, "outcome": "inactive"}
{"target gene": "CG11679", "dsRNA no.": 1, "infection score, replicate 1": 1.28, "outcome": "inactive"}
{"target gene": "CG3792", "dsRNA no.": 1, "infection score, replicate 1": 1.94, "outcome": "inactive"}
{"target gene": "CG4250", "dsRNA no.": 1, "infection score, replicate 1": 22.3, "outcome": "inactive"}

The listing continues:
{"target gene": "CG10417", "dsRNA no.": 1, "infection score, replicate 1": 19.5, "outcome": "inactive"}
{"target gene": "CG10417", "dsRNA no.": 2, "infection score, replicate 1": 8.65, "outcome": "inactive"}
{"target gene": "eIF4E6", "dsRNA no.": 1, "infection score, replicate 1": 5.43, "outcome": "inactive"}
{"target gene": "eIF4E6", "dsRNA no.": 2, "infection score, replicate 1": 7.07, "outcome": "inactive"}
{"target gene": "CG13958 (retired record)", "dsRNA no.": 1, "infection score, replicate 1": 16.9, "outcome": "inactive"}
{"target gene": "CG13958 (retired record)", "dsRNA no.": 2, "infection score, replicate 1": 6.35, "outcome": "inactive"}
{"target gene": "RpS14b", "dsRNA no.": 1, "infection score, replicate 1": 7.29, "outcome": "inactive"}
{"target gene": "CG17329", "dsRNA no.": 1, "infection score, replicate 1": 6.48, "outcome": "inactive"}
{"target gene": "CG17329", "dsRNA no.": 2, "infection score, replicate 1": 12.4, "outcome": "inactive"}
{"target gene": "CG3124", "dsRNA no.": 1, "infection score, replicate 1": 2.83, "outcome": "inactive"}
{"target gene": "CG3124", "dsRNA no.": 2, "infection score, replicate 1": 13.7, "outcome": "inactive"}
{"target gene": "I-3", "dsRNA no.": 1, "infection score, replicate 1": 4.97, "outcome": "inactive"}
